The results in this text go back to patent publication US20110280848A1, “COMPOSITION COMPRISING CHICORIC ACID AND/OR DERIVATIVES THEREOF” (NESTEC S.A., priority 2009, published 2011).

For this data set, the system named is chlorogenate esterase. The data set can be described thus: Hydrolysis of chicoric acid with chlorogenate esterase. The conditions noted are these: 37° C. Format: biochemical, Aspergillus japonicus.

With `O=C(O)/C=C/c1ccc(O)c(O)c1` [Caffeic Acid], the “Concentration in % relative to untreated reference at t = 0” value is, setting by setting: (pH 7.0, time 0 min) 2%; (pH 7.0, time 15 min) 9%; (pH 7.0, time 30 min) 10%; (pH 7.0, time 60 min) 13%; (pH 7.0, time 120 min) 19%; (pH 7.0, time 240 min) 26%.
As for `O=C(/C=C/c1ccc(O)c(O)c1)O[C@@H](C(=O)O)[C@@H](O)C(=O)O` [Caftaric Acid], the “Concentration in % relative to untreated reference at t = 0” value by setting is: (pH 7.0, time 0 min) 0%; (pH 7.0, time 15 min) 6%; (pH 7.0, time 30 min) 7%; (pH 7.0, time 60 min) 10%; (pH 7.0, time 120 min) 16%; (pH 7.0, time 240 min) 24%.
Consider `O=C(/C=C/c1ccc(O)c(O)c1)O[C@@H](C(=O)O)[C@@H](OC(=O)/C=C/c1ccc(O)c(O)c1)C(=O)O` [chicoric acid], for which the “Concentration in % relative to untreated reference at t = 0” value by setting is: (pH 7.0, time 0 min) 98%; (pH 7.0, time 15 min) 85%; (pH 7.0, time 30 min) 83%; (pH 7.0, time 60 min) 77%; (pH 7.0, time 120 min) 65%; (pH 7.0, time 240 min) 50%.
